This passage reports MIC results from ChEMBL document CHEMBL4513161, “CO-ADD screening of MMV (CH) - Pandemic Response Box” (2021).

Each structure is given as a SMILES string. In brackets after ≈: the same amount, converted by molar mass.

For the experiment, the system named is Pseudomonas aeruginosa. Description: Antibacterial activity against Pseudomonas aeruginosa PAO397 [PAO1 d(mexAB-oprM) d(mexCD-oprJ) d(mexEF-oprN) d(mexJKL) d(mexXY) d(opmH)] (CO-ADD:GN_211); MIC in CAMBH media using NBS plates, by OD(600). In kind it is functional. The conditions noted are these: ASSAY_TEST Inhibition of Bacterial Growth, detection method Absorption (OD600), MEDIA CAMHB, plate type 384well, CORNING #3640, time 18 hr.

Molecule `N=c1n(CCN2CCCCC2)c2ccccc2n1CC(O)COc1ccc(Cl)cc1Cl` (configuration not stated) yielded an MIC of 20 µM (≈ 9.27 µg/mL). The result for `CCN(CC)CCn1c(=N)n(CC(O)COc2ccc(Cl)cc2Cl)c2ccccc21` (configuration not stated) reads greater than 20 µM.

For orientation: MIC means the lowest concentration that inhibits growth of the organism. Lower therefore signals greater potency.
